Values quoted from earlier work in patent US11054415B2, “Preparation of bioconjugates and antibodies for the immunodetection of anatoxin-a” (dated 2021).

System: mice

CC(=O)C1=CCCC2CCC1N2 (stereo not shown)
Time to death after intraperitoneal injection into mice: less than 5 minutes
